PubChem BioAssay AID1259414 – Drosophila RNAi Screening Center | 2018
Test: 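Fly genes that alter Wolbachia amount inside host cells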 (primary screen). System: Drosophila JW18 cells infected with Wolbachia. Knock-down reagent: long dsRNA against Drosophila genes, 0.25 µg dsRNA per well of a 384-well plate. Time to read-out: 5 days. Challenge: cells persistently infected with Wolbachia before knock-down; no added drug. Read-out: 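Automated imaging of bacterial rRNA staining divided by host cell count, reported as plate-normalised robust z-score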. Scale: Wolbachia per cell robust z: higher = more Wolbachia per host cell than the plate typical. Call rule: 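Hit when robust z is 1.5 or more, or -1.5 or less, in at least two of three replicates; excludes dsRNAs with several or no targets, genes not expressed in JW18 and well A1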.
The deposit covers about 24,000 reagents; this is an unselected part of those with a known target gene and a result. Over the whole deposit, about 1,210 (5%) got an active call. 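Inactive calls also include excluded dsRNAs with several or no targets, genes unexpressed in JW18, and well A1, regardless of score.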 Unmarked entries are inactive. Reagents against one gene are numbered here. A plus sign joins genes that one reagent is predicted to hit.

| gene | reagent no. | Wolbachia per cell robust z, rep 1 | Wolbachia per cell robust z, rep 2 | Wolbachia per cell robust z, rep 3 |
| --- | --- | --- | --- | --- |
| CG15536 | 1 | -3.13 | -1.39 | -0.00167 |
| CG15536 | 2 | 0.359 | -0.663 | -0.155 |
| CG15536 | 3 | -0.636 | -2.04 | 0.452 |
| CPT2 | 1 | -0.319 | -1.4 | 0.717 |
| sea + fabp | 1 | -0.607 | -1.73 | -0.506 |
| CG16898 | 1 | -0.207 | -0.352 | 0.127 |
| CG16898 | 2 | -8.61 | -0.642 | -2.79 |
| CG16898 | 3 | 0.635 | 0.352 | 1.37 |
| Hsc70-4 | 1 | 2.4 (active) | 3.16 | 2.77 |
| Hsc70-4 | 2 | 3.2 (active) | 2.02 | 3.2 |
| nkd | 1 | 0.517 | -0.99 | -0.261 |
| nkd | 2 | -2.73 (active) | -1.52 | 0.219 |
| Tfb1 | 1 | -0.75 | 0.218 | 0.225 |
| CG32750 | 1 | -1.14 | -1.08 | -2.57 |
| TFAM | 1 | -7.48 | 0.613 | -0.627 |
| TFAM | 2 | 0.3 | 0.00202 | -1.28 |
| CG7102 | 1 | -0.126 | -0.835 | 0.111 |
| CG7102 | 2 | -1.15 | 0.557 | 0.285 |
| GM130 | 1 | -0.502 | 0.392 | -0.389 |
| CG9593 | 1 | 0.597 | 0.807 | -0.515 |
| CG13708 | 1 | 1.2 | 1.02 | 0.998 |

6 entries from above, showing only “Wolbachia per cell robust z, rep 3”.
CG16898 #1 = 0.127
CG16898 #2 = -2.79
CG16898 #3 = 1.37
Hsc70-4 #1 = 2.77 (active)
Hsc70-4 #2 = 3.2 (active)
nkd #1 = -0.261

The results go on.
| gene | reagent no. | Wolbachia per cell robust z, rep 1 | Wolbachia per cell robust z, rep 2 | Wolbachia per cell robust z, rep 3 |
| --- | --- | --- | --- | --- |
| ItgaPS5 | 1 | -1.82 | 0.893 | -0.116 |
| ItgaPS5 | 2 | 1.58 (active) | 1.15 | 1.54 |
| CG7747 | 1 | 0.728 | -7.06 | -0.565 |
| CG7747 | 2 | 0.0644 | -0.419 | 0.442 |
| exex | 1 | -0.681 | -4.06 | 0.269 |
| exex | 2 | -1.68 | -1.51 | -0.622 |
| CG17477 | 1 | -1.56 | 0.25 | 0.441 |
| CG17477 | 2 | -0.102 | 0.124 | -0.108 |
| shf + Coq7 | 1 | -1.13 | -0.291 | 0.162 |
| Or65b | 1 | 1.07 | 1.48 | 0.146 |
| CG15124 | 1 | 0.309 | 0.693 | -0.0354 |
| CG9459 | 1 | -3.42 | 0.94 | 1.19 |
| CG1544 | 1 | 0.255 | 0.532 | 0.419 |
| Obp44a | 1 | -1.17 | -1.95 | -0.227 |
| Obp44a | 2 | 0.273 | -0.678 | -0.627 |
| bip1 | 1 | -0.344 | 0.184 | -0.882 |
| Paip2 | 1 | -0.307 | -0.283 | 0.197 |
| wun | 1 | -0.263 | -2.48 | 1.25 |
| CG40472 + ND-AGGG | 1 | 1.92 | 0.894 | 0.77 |
| CG31465 | 1 | -0.0487 | -0.111 | -5.29 |
| CG31465 | 2 | -0.0686 | -0.352 | -0.0515 |
| gny | 1 | -0.641 | -5.35 | 0.0768 |
| CG31055 | 1 | -0.146 | 0.452 | -0.685 |
| CG31705 | 1 | 0.746 | 0.72 | -10.7 |
| CG31705 | 2 | -3.23 | 0.0273 | -0.0333 |
